Pooled drug test results. Numbers come from NIAID ChemDB, via PubChem.

Common to all: tests in culture; organism: Hepatitis B virus; read-out: EC50

An empty or dashed field is not shown. a–b is a range or a potency band. Rows are shuffled and stem from different studies. ECn is the concentration giving n% inhibition of infection, replication or growth.

compound | strain or isolate | changes | cell line | method | value
CNS(=O)(=O)NC1CCN(S(=O)(=O)c2cn(C)c(C(=O)Nc3cc(F)c(F)c(F)c3)c2F)CC1 | - | - | HepAD38 cells | PCR | 0.3–1 µM
COc1ccc(-n2c(C(=O)NCc3ccc4occc4c3)c3n(c2=O)CCN(C(=O)c2ccc(Cl)c(Cl)c2)C3)cc1 | - | - | HepG2.117 | PCR | 0.5–5 µM
Cn1nc2cc(NS(=O)(=O)Cc3ccccc3)ccc2c1C(=O)Nc1ccc(F)c(Cl)c1 | - | - | HepAD38 | PCR | 100–1000 µM
C=CCNC(=O)C(=O)c1c(C)c(C(=O)Nc2ccc(F)c(C(F)(F)F)c2)n(C)c1C | - | - | HepG2.2.15 | PCR | 0.001–0.00999 µM
CN(C)CCn1cc(S(=O)(=O)Nc2ccc3c(C(=O)Nc4ccc(F)c(Cl)c4)n(C)nc3c2)cn1 | - | - | HepAD38 | PCR | 100–1000 µM
O=C(O)c1cc2c(n(C3CC3)c1=O)-c1cc(Cl)c(OC[C@@H]3COCCO3)cc1S(=O)(=O)C2 | - | - | Primary human hepatocytes | antigen / visual reading / absorbance | 0.1–0.5 µM
C[C@@H](NC(=O)C1C2CN(C(=O)c3ccc(Br)c(Cl)c3)CCN2C(=O)N1c1ccc(OC2CC2)cc1)c1ccccc1 | - | - | HepG2.117 | PCR | 0.1–0.5 µM
O=C(O)c1cc2c(n(C3CC3)c1=O)-c1cc(Cl)c(O)cc1S(=O)(=O)C2 | - | - | Primary human hepatocytes | antigen / visual reading / absorbance | >0.5 µM
CCOC(=O)C1=C(CN2CC(F)(F)[C@H]3[C@@H]2CCN3CC[C@](C)(O)C(=O)O)NC(c2nccs2)=N[C@H]1c1ccc(F)c(F)c1Cl | - | - | HepG2.2.15 | PCR | 0.007 µM
C#CC(C)(C)NC(=O)C(=O)c1c(C)c(C(=O)Nc2ccc(F)c(F)c2)n(C)c1C | - | - | HepG2.2.15 | PCR | 0.001–0.0099 µM
CCOC(=O)C1=C(CN2CC(F)(F)[C@@H]3[C@H]2CON3C[C@H](O)C(C)(C)C(=O)O)NC(c2nccs2)=N[C@@H]1c1ccc(Cl)c(F)c1 | - | - | HepG2.2.15 | PCR | 0.039 µM
Cc1cnn(-c2ccc(-n3c(=O)c4c(n5ncc(CC(C)C)c35)CN(C(=O)c3ccc(Br)c(C(F)(F)F)c3)[C@@H](C)C4)cc2)n1 | - | - | HepG2.117 | luminescence | 0.5–5 µM
CCOC(=O)C1=C(CN2CC(F)(F)[C@@H]3[C@H]2CON3C[C@@H](O)[C@@H](CC)C(=O)O)NC(c2nccs2)=N[C@H]1c1cccc(F)c1C | - | - | HepG2.2.15 | PCR | 0.068 µM
CC1(COc2cc3c(cc2Cl)-c2c(cc(C(=O)O)c(=O)n2C2CC2)CS3(=O)=O)CCO1 | - | - | Primary human hepatocytes | antigen / visual reading / absorbance | 0.1–0.5 µM
CNC(=O)c1ccc(-n2c(=O)c3c(n4ncc(CC5CCC5)c24)CN(C(=O)c2ccc(Br)c(C(F)(F)F)c2)[C@@H](C)C3)cc1 | - | - | HepG2.117 | luminescence | 0.05–0.5 µM
COc1ccc(-n2c(C(=O)N[C@H](c3ccccc3)C3CC3)c3n(c2=O)CCN(C(=O)c2ccc(Br)c(Cl)c2)C3)cc1 | - | - | HepG2.117 | PCR | 0.1–0.5 µM
Cn1nc2cc(C(=O)NCCOCCO)ccc2c1C(=O)Nc1ccc(F)c(Cl)c1 | - | - | HepAD38 | PCR | 100–1000 µM
O=C(c1ccc(Br)c(Cl)c1)N1CCn2c(c3n(c2=O)C[C@@H](O)CN(Cc2ccccc2)C3=O)C1 | - | - | HepG2.117 | PCR | 0.5–5 µM
CCOC(=O)C1=C(CN2CC(F)(F)[C@@H]3[C@H]2CON3CC(F)(F)C(C)(C)C(=O)O)NC(c2nccs2)=N[C@H]1c1cccc(F)c1C | - | - | HepG2.2.15 | PCR | 0.01 µM
Cc1cc(NC(=O)c2c3c(cn2C)S(=O)(=O)N[C@H]2CN(C(=O)C(=O)NC(C)(C)C)C[C@H]2CO3)ccc1F | - | - | HepAD38 | PCR | <0.5 µM
CCNC(=O)C(=O)N1CCC(NS(=O)(=O)c2cn(C)c(C(=O)Nc3cc(F)c(F)c(F)c3)c2Cl)CC1C | - | - | HepAD38 cells | PCR | <0.1 µM
Cc1cc(NC(=O)c2c3c(cn2C)S(=O)(=O)NC2CN(C(=O)C(=O)NC4CC4)CC2CO3)ccc1F | - | - | HepAD38 | PCR | <0.5 µM
CN1Cc2cc(-n3c(=O)c4c(n5ncc(Cc6ccccc6)c35)CN(C(=O)c3ccc(Br)c(Cl)c3)CC4)ccc2C1=O | - | - | HepG2.117 | luminescence | ≤0.05 µM
CCOC(=O)C1=C(CN2CC(F)(F)[C@@H]3[C@H]2CON3C[C@@H](F)C(C)(C)C(=O)O)NC(c2nccs2)=N[C@@]1(C)c1cccc(F)c1C | - | - | HepG2.2.15 | PCR | 0.0095 µM
C=C[C@@](C)(CO)NC(=O)C(=O)c1c(C)c(C(=O)Nc2ccc(F)c(C#N)c2)n(C)c1C | - | - | HepG2.2.15 | PCR | 0.001–0.0099 µM
COCCCOc1cc2c(cc1C)-c1c(cc(C(=O)O)c(=O)n1C1CC1)C(C)S2(=O)=O | - | - | Primary human hepatocytes | antigen / visual reading / absorbance | 0.1–0.5 µM
Cc1ncnn1-c1ccc(-n2c(=O)c3c(n4ncc(Cc5ccccc5)c24)CN(C(=O)c2ccc(Br)c(C(F)(F)F)c2)CC3)cc1 | - | - | HepG2.117 | luminescence | ≤0.05 µM
Cc1cc(NC(=O)c2c3c(cn2C)S(=O)(=O)N[C@H]2CN(C(=O)C(=O)N[C@H](C)C(F)(F)F)C[C@H]2CO3)ccc1F | - | T33P | HepG2 | PCR | 0.00168 µM
Cn1nc2cc(NS(=O)(=O)N3CCOCC3)ccc2c1C(=O)Nc1ccc(F)c(Cl)c1 | - | - | HepAD38 | PCR | 100–1000 µM
COCCCOc1cc2c(cc1C)-c1c(cc(C(=O)O)c(=O)n1C1CCC1)C(C)S2(=O)=O | - | - | Primary human hepatocytes | antigen / visual reading / absorbance | 0.1–0.5 µM
CCOC(=O)C1=C(CN2CC(F)(F)[C@@H]3[C@H]2CON3C[C@@H](F)CCC(C)(C)C(=O)O)NC(c2nccs2)=N[C@H]1c1cccc(F)c1C | - | - | HepG2.2.15 | PCR | 0.008 µM
O=C(O)c1cc2c(n(C3CC3)c1=O)-c1cc(Cl)c(OC[C@H]3CCCO3)cc1S(=O)(=O)C2 | - | - | Primary human hepatocytes | antigen / visual reading / absorbance | >0.05 µM
CNC(=O)C(=O)N1CC[C@@H](NS(=O)(=O)c2cn(CC(F)F)c(C(=O)Nc3ccc(F)c(F)c3)c2F)C1 | - | - | HepAD38 cells | PCR | <0.1 µM
Cn1nc2cc(NS(=O)(=O)c3cnn(-c4ccccc4)c3)ccc2c1C(=O)Nc1ccc(F)c(Cl)c1 | - | - | HepAD38 | PCR | 100–1000 µM
C[C@@H]1Cc2c(n3ncc(CC4CC4)c3n(-c3ccc(-c4nncn4C)cc3)c2=O)CN1C(=O)c1ccc(Br)c(C(F)(F)F)c1 | - | - | HepG2.117 | luminescence | ≤0.05 µM
Nc1nc(=O)c2ncn([C@@H]3O[C@H](CO)[C@@H](O)[C@H]3O)c2c(=O)[nH]1 | - | - | 2.2.15 | antigen | <10 µM
CCC[C@@H]1Cc2c(n3ncc(Cc4ccccc4)c3n(-c3ccc4c(NC)n[nH]c4c3)c2=O)CN1C(=O)c1ccc(Br)c(C(F)(F)F)c1 | - | - | HepG2.117 | luminescence | ≤0.05 µM
C#C[C@](CO)(NC(=O)C(=O)c1c(C)c(C(=O)Nc2ccc(F)c(C#N)c2)n(C)c1C)C(F)(F)F | - | - | HepG2.2.15 | PCR | 0.001–0.0099 µM
COc1ccc(-n2c(C(=O)Nc3ccccc3)c3n(c2=O)CCN(C(=O)c2ccc(Cl)c(Cl)c2)C3)cc1 | - | - | HepG2.117 | PCR | >5 µM
C[C@@H]1Cc2c(n3ncc(Cc4ccccc4)c3n(-c3ccc(-c4cnnn4C)cc3)c2=O)CN1C(=O)c1ccc(Br)c(C(F)(F)F)c1 | - | - | HepG2.117 | luminescence | ≤0.05 µM
CCS(=O)(=O)N1CC2CC1CN2S(=O)(=O)c1cn(C)c(C(=O)Nc2ccc(F)c(F)c2)c1F | - | - | HepAD38 cells | PCR | 0.3–1 µM
CN1[C@H](C(=O)Nc2ccc(F)c(Cl)c2)C[C@H](c2ncc(-c3cn(C)cn3)s2)NS1(=O)=O | Genotype D | - | PHH | ELISA / antigen | 0.216 µM
COCCCOc1cc2c(cc1Cl)-c1c(cc(C(=O)O)c(=O)n1C1CC1)C(C)S2(=O)=O | - | - | Primary human hepatocytes | antigen / visual reading / absorbance | 0.1–0.5 µM
Cc1cc(NC(=O)c2c3c(cn2C)S(=O)(=O)NC2CCN(C(=O)C(=O)NC4CC4)CC2CO3)ccc1F | - | - | HepAD38 | PCR | <0.5 µM
Cc1c(NS(=O)(=O)c2ccc3c(C(=O)Nc4ccc(F)c(Cl)c4)n(C)nc3c2)cnn1C | - | - | HepAD38 | PCR | 100–1000 µM
C#CCc1cnn2c3c(c(=O)n(-c4ccc(C(=O)NC)cc4)c12)C[C@H](C)N(C(=O)c1ccc(Br)c(C(F)(F)F)c1)C3 | - | - | HepG2.117 | luminescence | 0.05–0.5 µM
CCOC(=O)Cn1cc(S(=O)(=O)Nc2ccc3c(C(=O)Nc4ccc(F)c(Cl)c4)n(C)nc3c2)cn1 | - | - | HepAD38 | PCR | >1000 µM
COc1ccc(-n2c(C(=O)N[C@@H](C)C3CC3)c3n(c2=O)CCN(C(=O)c2ccc(Cl)c(Cl)c2)C3)cc1 | - | - | HepG2.117 | PCR | >5 µM
COCCCOc1cc2c(cc1-c1ccc(C)s1)-c1c(cc(C(=O)O)c(=O)n1C1CC1)CS2(=O)=O | - | - | Primary human hepatocytes | antigen / visual reading / absorbance | 0.1–0.5 µM
Cn1nc2cc(C(=O)NCCOCCOCCO)ccc2c1C(=O)Nc1ccc(F)c(Cl)c1 | - | - | HepAD38 | PCR | 100–1000 µM

A second listing of 3 rows from above:

compound | strain or isolate | changes | cell line | method | value
Cc1cc(NC(=O)c2c3c(cn2C)S(=O)(=O)N[C@H]2CN(C(=O)C(=O)NC(C)(C)C)C[C@H]2CO3)ccc1F | - | - | HepAD38 | PCR | <0.5 µM
CN1Cc2cc(-n3c(=O)c4c(n5ncc(Cc6ccccc6)c35)CN(C(=O)c3ccc(Br)c(Cl)c3)CC4)ccc2C1=O | - | - | HepG2.117 | luminescence | ≤0.05 µM
CN1[C@H](C(=O)Nc2ccc(F)c(Cl)c2)C[C@H](c2ncc(-c3cn(C)cn3)s2)NS1(=O)=O | Genotype D | - | PHH | ELISA / antigen | 0.216 µM